Measurements as given in patent US20150086555A1 (THERACLONE SCIENCES, published 2015).

Key:
[1] = target: Hemagglutinin (HA) of influenza A virus A/Solomon Islands/3/06 H1N1, on whole virions (Influenza A virus A/Solomon …)
[2] = target: Hemagglutinin (HA) of influenza A virus A/Japan/305/57 H2N2, on whole virions (Influenza A virus A/Japan/305/1957 …)
[3] = target: T1, Hemagglutinin (HA) of influenza A virus A/Wisconsin/67/05 H3N2, on whole virions (Influenza A virus A/Wisconsin/67/2005 …); assay: ELISA on coated inactivated whole virions; transfection supernatant, set 5
T1 construct: whole, on cells

[4] = target: T1, Hemagglutinin (HA) of influenza A virus …; assay: ELISA on coated inactivated whole virions; transfection supernatant, set 2
[5] = target: T1, Hemagglutinin (HA) of influenza A virus …; assay: ELISA on coated inactivated whole virions; transfection supernatant, set 3

| Binder | ELISA virus binding (OD450) [1] [OD450] | ELISA virus binding (OD450) [2] [OD450] | ELISA virus binding (OD450) [3] [OD450] | ELISA virus binding (OD450) [4] [OD450] | ELISA virus binding (OD450) [5] [OD450] |
| --- | --- | --- | --- | --- | --- |
| TCN-548 (5092_P01) (antibody, V domains shown) VH: QVQLQESGPGLVKPSETLSLTCTVSSGPMSDYYWSWIRQPPGKGLEWIGHVSVSHGGRTKSNPSVMSRVTISVETSKNQFSLKLTSVTAADTAVYYCARLNYYDRSGYHSPDGPSNNWFDPWGQGTLVTVSS VL: DIVMTQSPDSLAVSLGERATINCKSSQSVLYSSNNKNYLAWYQQKPGQPPKLLIYWASTRESGVPDRISGSGSGADFTLTISSLQAEDVAVYYCQQYFATPRTFGQGTKVEIK | 0.13 | 0.09 | 3.63 | – | – |
| TCN-549 (5092_P04) (antibody, V domains shown) VH: QVQLVQSGAEVKKPGASVKVSCKASGYTFTGYYMHWVRQAPGQGLEWMGWINPNSGDTNYAQKFQGRVTMTRDTSITTAYMELSSLRSDDTAVYYCARDSPYSSSWSFFDYWGQGPLVTVSS VL: DIVMTQSPDSLAVSLGERATINCKSSQSVLYSSNNKSHLAWYQQKPGQPPKLLIYWASTRESGVPDRFSGSGSGTDFTLIISSLQAEDVAVYYCQQYYFSPLTFGGGTKVEIK | 0.09 | 0.08 | 0.46 | – | – |
| TCN-547 (5092_F11) (antibody, V domains shown) VH: QVQLQESGPGLVKPSQTLSLTCTVSGDSISSVDHYWSWIRQHPVKGLEWIGFMYYSASTYYNPSLKSRVTISTDTSKNQFSLRLSSVTAADTAVYYCARGTCAGDCSLHYYYYGLDVWGQGRTVTVSS VL: DIQMTQSPSSLSASVGDRVTITCRASQSISSYLNWYQHKPGKAPKVLMYAVSILQSGVPSRFSGSGSGADFTLTISSLQPEDFATYYCQQSYSSPLTFGGGTKVEIK | 0.09 | 0.09 | 0.13 | – | – |
| TCN-563 (5237_B21) (antibody, V domains shown) VH: QVQLAQSGAEVKRPGSSVKVSCTASGGIFRKNAISWVRQAPGQGLEWMGGIIAVFNTANYAQKFQGRVKITADESGNTAYMELSSLRSDDTAVYYCASHPKYFYGSGSYPDFWGQGTLVTVSS VL: QSALTQPRSVSGSPGQSVTISCTGSSSDVGASNSVSWYQQHPGKAPKLVIYDVTERPSGVPHRFSGSKSGNTASLTVSGLQPEDEADYFCCAYGGKYLVVFGGGTKVTVL | – | 0.84 | – | 0.09 | – |
| TCN-554 (5277_M05) (antibody, V domains shown) VH: QVQLVQSGADLKKPGASVKVSCKASGYTFTDYYIHWVRQAPGQGLEWMGWINPESGDTKYAQKFQGRVTMTRDTSITTAYMELGRLRSDDTAVYYCARDVSTTWSWFAPWGQGTLVTVSS VL: DIVMTQSPDSLAVSLGERATINCRSSQSIFHNSNNENYLAWYQQKPGQPPKLLIYWASTRESGVPDRFSGSGSGTDFTLTISSLQAEDVAVYFCQQYYNAPLTFGGGTKVEIK | 0.18 | 0.11 | 3.4 | – | – |
| TCN-522 (3212_I12) (antibody, V domains shown) VH: QVQLQQWGAGLLKPSETLSLTCTVSGGSLTDYSWNWIRQPPGKGLEWIGDTLHNGYTNYNPSLRGRVSISIDTSKNQVSLRLTSVTAADTALYYCARGSGGYGGFDYFGKLRTWDFWGQGTLVTVSS VL: DIQLTQSPSSLSASVGDRVTITCRASQGIRNDLGWYQQKPGNAPKRLIFGASSLQSGVPSRFSGSGSGTEFTLTISSLQPEDFATYYCLQHNSYPYTFGQGTKLEIK | – | 0.61 | – | 0.07 | – |
| TCN-528 (5087_P17) (antibody, V domains shown) VH: QVQLVQSGSEVKKPGASVKVSCKASGYTFTNYDINWIRQAPGQGLEWMGWINPNSGTTGSAQRFQGRVTITVDTSITTVYMELSSLRSDDTAIYYCARGRELLRLQHFLTDSQSERRDCFDPWGQGTLVTVSS VL: DIQMTQSPSSLSASVGDRVTITCRANQDIGIYLNWYQQNPGKVPKLLLHGASSLQGGVPSRFSASGSGTDFTLTIHSLQPEDLATYYCQQSRRLPYTFGQGTRVELK | – | 3.64 | – | 0.23 | – |
| TCN-533 (5256_A17a) (antibody, V domains shown) VH: QVQLVQSGADVKKPGSSVTVSCKASGGSFSNYGINWVRQAPGQGLEWMGGIIPLINAPNYAPKFQGRVTITADMFSNIVSLQLTSLRTDDTAVYYCARRKMTTAIDYWGQGTLVTVSS VL: QPVLTQPPSASASLGASVTLTCTLSSAYSNYKVDWYQQRPGKGPRFVMRVGTGGIVGSKGDGIPDRFSVLGSGLNRYLTIKNIQEEDESDYHCGADHGSGSNFVSPYVFGGGTKLTVL | – | 3.65 | – | – | 0.22 |
| TCN-530 (5248_H10a) (antibody, V domains shown) VH: QVQLVQSGAEVRKPGSSVKVSCKASGGPFMSYAIGWVRQAPGQGLEWMGGINPVFGRPHYAQKFQGRVTIATDDSTKTSYMELSSLTSEDTGMYYCASRYSRSSPGTFESWGQGTLVTVSS VL: EIVMTQFPATLSVSPGERVTLSCRASQSVSNNLAWYQQKPGQPPRLLIYDASTRATGVPAKFSGTGSGTEFTLSISSLQSEDFAVYYCQQYHNWPPSYSFGLGTKLEIK | – | 3.43 | – | – | 0.21 |
| TCN-544 (5082_A19) (antibody, V domains shown) VH: QVQLQESGPGLVKPSETLSLTCTVSRGSIGHYFWSWIRQPPGKGLEWIGYISYSGSTKYNPSLRSRVTISVDTSKNQFSLNLNSVTATDTALYYCAREDYDILTGAGPGMEVWGQGTTVTVSS VL: QSMLTQPPSASGTPGQRVTISCSGSSSNIGSNTVNWFKHLPGTAPKLLIYRNDLRPSGVPDRFSGSKSGTSASLAISGLQSEDEADYYCATWDDSLNGFYVFGTGTKVTVL | 0.07 | 0.07 | 3.65 | – | – |
| TCN-542 (5079_A16) (antibody, V domains shown) VH: QVQLQESGPGLVKPSQTLSLTCTVSGGSISSGNYYWNWVRQHPGKGLEWIGYIYYRGSTFYNPSLKSRVTISIDTSKNQFSLRLSSVTAADTAVYYCAKDTRSSLDNYQYGMDVWGQGTTVTVSS VL: QTVVTQEPSLTVSPGGTVTLTCASSTGAVTSSYFPNWFQQKPGQAPRPLIYSTTIRHSWTPARFSGSLLGGKAALTLSGVQPEDEADYYCLLYSGGDPVAFGGGTKLTVL | 3.6 | 0.07 | 0.23 | – | – |
| TCN-550 (5096_F06) (antibody, V domains shown) VH: QVQLQESGPGLVKPSETLSLTCTVSGASINSHYWSWIRQPPGKGLEWIGYVYYSGSTTYNPSLKSRVTLSVDTSKNQFSLNLSSVTAADTAFYYCARHPYDVLTGSGDWFDPWGQGTLVTVSS VL: SYVLTQAPSVSVAPGQTARITCGGNAIGSKKVHWYQHKAGQAPVLVVYDDTDRPSGIPERFSGSNSWSTATLTINRVEAGDEADYYCQVWDFTIDHVVFGGGTKLTVL | 0.13 | 0.08 | 3.62 | – | – |
| TCN-526 (5084_C17) (antibody, V domains shown) VH: EVLMVESGGGLVQPGGSVRLSCVASGFSFSSHWMTWVRQAPGKGLEWVANIEDDGGDKYYVDSVKGRFIISRDNAKNSVYLQMNSLRAEDTAVYFCARGSGSSDRSDYDPHYYYYLDVWGKGATVTVSS VL: DIQLTQSPSSLSASVGDRVTITCRASQSISRYLNWYQQKPGKAPKLLLFAASTLLDGVPSRFSGSGSGTDFTLTISSLQPEDFATYYCQRNHSPSWTFGQGTRVEIK | 0.08 | 0.07 | – | 0.31 | – |
| TCN-527 (5086_C06) (antibody, V domains shown) VH: QVQLQESGPGLVKPSETLSLNCAVSGGSISNYYWSWIRQPPGKGLEWIGYISYNGRPKYNPSLTSRVTISVDTSKDQFSLELRSVTAADTALYYCARETRFGELLSPYDAFEIWGQGTMVTVSS VL: DIQMTQSPSSLSASVGDRVTMTCRASQNIRSYLNWYQQRPGTAPKLLIYAASTLHSGVPSRFSGGGSGTDFTLTINNLQPEDFASYYCQQSYDNPQTFGQGTKVEIK | – | 3.63 | – | 0.14 | – |
